Anti-infective test results gathered from many reports (values: NIAID ChemDB through PubChem).

All rows: target-level tests

Two numbers with a dash give a range or band.

SMILES,read by,read-out,strain,species,target,mutations,tested at,value
CC(C)c1ccc(-n2nnnc2SCC(=O)Nc2ccc(C#CC(C)(C)C(=O)O)cc2Cl)c(Cl)c1,PicoGreen / fluorescence,IC50,-,HIV-1,Reverse transcriptase,RT-K103 Y181C,-,<1 µM
O=C(NCc1cccc2ccccc12)c1cn2c(c(O)c1=O)C(=O)N(Cc1cccc(Cl)c1)CC2,ELISA,IC50,-,HIV-1,Integrase,-,-,<0.01 µM
CC(C)(C#Cc1ccc(NC(=O)CSc2nnnn2-c2ccc(C3CC3)cc2Cl)c(Cl)c1)NCC(N)=O,PicoGreen / fluorescence,IC50,-,HIV-1,Reverse transcriptase,RT-K103 Y181C,-,<1 µM
CC(C)(CCNS(C)(=O)=O)CN(C[C@@H](O)[C@H](Cc1ccccc1)NC(=O)O[C@H]1CO[C@H]2OCC[C@H]21)S(=O)(=O)c1cccc(N)c1,fluorescence,Ki,-,HIV-1,Protease,-,-,<0.001 µM
Cn1ncnc1-c1cn2ccn(Cc3ccc(F)cc3)c(=O)c2c(O)c1=O,ELISA,IC50,-,HIV-1,Integrase,-,-,<0.01 µM
CC(C)(C)NC(=O)[C@@H]1C2CCCCC2CCN1C(=O)[C@@H](O)[C@H](Cc1ccccc1)NC(=O)[C@H](CS(C)(=O)=O)NC(=O)COc1cccc2ccccc12,-,inhibition,-,HIV-1,Protease,-,0.05 µM,3.4%
CC(C)(O)C#Cc1ccc(NC(=O)CSc2nnnn2-c2cc(Cl)c(C3CC3)cc2Cl)c(Cl)c1,PicoGreen / fluorescence,IC50,WT,HIV-1,Reverse transcriptase,-,-,<1 µM
CS(=O)(=O)C[C@H](NC(=O)COc1cccc2ccccc12)C(=O)N[C@@H](Cc1ccccc1)[C@H](O)C(=O)N1CSC[C@H]1C(=O)NC(CO)c1ccccc1,-,inhibition,-,HIV-1,Protease,-,0.05 µM,5.5%
O=C(O)Cc1ccc(-c2ccc(NC(=O)CSc3nnnn3-c3cc4c(cc3Cl)CCC4)c(Cl)c2)cc1,PicoGreen / fluorescence,IC50,-,HIV-1,Reverse transcriptase,RT-K103 Y181C,-,<1 µM
CCSC(=O)NCCCCC(C)(C)CN(C[C@@H](O)[C@H](Cc1ccccc1)NC(=O)O[C@H]1CO[C@H]2OCC[C@H]21)S(=O)(=O)c1cccc(N)c1,fluorescence,Ki,-,HIV-1,Protease,-,-,<0.001 µM
CC(C)(C)OC(=O)N[C@@H](Cc1ccccc1)C(=O)N[C@@H](CC(N)=O)C(=O)N[C@@H](Cc1ccccc1)[C@H](O)C(=O)NCC1CCCCC1,-,inhibition,-,HIV-1,Protease,-,1000 µM,79.7%
Nc1nc2c(ncn2[C@H]2CO[C@@H](COP(=O)(O)OP(=O)(O)OP(=O)(O)O)O2)c(=O)[nH]1,radiometric,Ki,-,HIV,Reverse transcriptase,RT-L74V,-,0.067 µM
O=C(Cn1ccn2ccc(=O)c(O)c2c1=O)Nc1ccccc1,ELISA,IC50,-,HIV-1,Integrase,-,-,0.1–1 µM
C#CCOC(=O)NCCCCCC(C)(C)CN(C[C@@H](O)[C@H](Cc1ccccc1)NC(=O)O[C@H]1CO[C@H]2OCC[C@H]21)S(=O)(=O)c1ccc2c(c1)OCO2,fluorescence,Ki,-,HIV-1,Protease,-,-,<0.001 µM
CC(C)=CCN1Cc2cccc3[nH]c(=S)n(c23)C[C@@H]1C,nucleotide incorporation,fold resistance,-,HIV,Reverse transcriptase,RT-K263V,-,0.87
CC(C)(C#Cc1ccc(NC(=O)CSc2nnnn2-c2ccc(C3CC3)cc2Cl)c(Cl)c1)C(=O)NCCCN1CCCC1=O,PicoGreen / fluorescence,IC50,WT,HIV-1,Reverse transcriptase,-,-,<1 µM
CC(C)(CCOC(=O)N1CCCC1)CN(C[C@@H](O)[C@H](Cc1ccccc1)NC(=O)O[C@H]1CO[C@H]2OCC[C@H]21)S(=O)(=O)c1ccc2c(c1)OCO2,fluorescence,Ki,-,HIV-1,Protease,-,-,<0.001 µM
CC(C)[C@H](N)C(=O)N[C@H](C(=O)N[C@@H](Cc1ccccc1)[C@@H](O)C(=O)N(CC(=O)N[C@H](C(=O)N[C@H](C(N)=O)C(C)C)C(C)C)Cc1ccccc1)C(C)C,-,inhibition,-,HIV-1,Protease,-,1000 µM,97.7%
Cc1cc(C#CC(C)(C)C(=O)O)ccc1NC(=O)CSc1nnnn1-c1ccc(C(C)(C)C)cc1Cl,PicoGreen / fluorescence,IC50,WT,HIV-1,Reverse transcriptase,-,-,<1 µM
CC(C)(CCNS(=O)(=O)c1ccc(F)cc1)CN(C[C@@H](O)[C@H](Cc1ccccc1)NC(=O)O[C@H]1CO[C@H]2OCC[C@H]21)S(=O)(=O)c1ccc2c(c1)OCO2,fluorescence,Ki,-,HIV-1,Protease,-,-,<0.001 µM
CC(C)(C)NC(=O)[C@H]1N(C(=O)[C@@H](O)[C@H](Cc2ccccc2)NC(=O)[C@H](CC(N)=O)NC(=O)COc2cccc3cccnc23)CSC1(C)C,-,IC50,-,HIV-1,Protease,-,-,~0.05 µM
NC(=O)c1cn2ccn(Cc3cccc(Cl)c3)c(=O)c2c(O)c1=O,ELISA,IC50,-,HIV-1,Integrase,-,-,0.01–0.1 µM
CC(C)(CCNC(=O)N1CCOCC1)CN(C[C@@H](O)[C@H](Cc1ccccc1)NC(=O)O[C@H]1CO[C@H]2OCC[C@H]21)S(=O)(=O)c1ccc2c(c1)OCO2,fluorescence,Ki,-,HIV-1,Protease,-,-,<0.001 µM
CC(C)(C#Cc1ccc(NC(=O)CSc2nnnn2-c2ccc(C(C)(C)C)cc2Cl)c(Cl)c1)OCC(=O)NCC(=O)O,PicoGreen / fluorescence,IC50,-,HIV-1,Reverse transcriptase,RT-K103 Y181C,-,<1 µM
CC(C)(CCCOC(=O)Oc1ccc([N+](=O)[O-])cc1)CN(C[C@@H](O)[C@H](Cc1ccccc1)NC(=O)O[C@H]1CO[C@H]2OCC[C@H]21)S(=O)(=O)c1ccc2c(c1)OCO2,fluorescence,Ki,-,HIV-1,Protease,-,-,<0.001 µM
CC(C)(C)c1ccc(-n2nnnc2SCC(=O)Nc2ccc(C#CCCCOC(N)=O)cc2Cl)c(Cl)c1,PicoGreen / fluorescence,IC50,-,HIV-1,Reverse transcriptase,RT-K103 Y181C,-,<1 µM
CC(C)(CCCNC(=O)CCC1CCCC1)CN(C[C@@H](O)[C@H](Cc1ccccc1)NC(=O)O[C@H]1CO[C@H]2OCC[C@H]21)S(=O)(=O)c1ccc2c(c1)OCO2,fluorescence,Ki,-,HIV-1,Protease,-,-,<0.001 µM
CC(C)(C)c1ccc(-n2nnnc2SCC(=O)Nc2ccc(NC(=O)c3ccc(C(=O)O)cc3)cc2Cl)c(Cl)c1,PicoGreen / fluorescence,IC50,WT,HIV-1,Reverse transcriptase,-,-,<1 µM
CC(C)(CCCCNS(C)(=O)=O)CN(C[C@@H](O)[C@H](Cc1ccccc1)NC(=O)O[C@H]1CO[C@H]2OCC[C@H]21)S(=O)(=O)c1cccc2c1OCCO2,fluorescence,Ki,-,HIV-1,Protease,-,-,<0.001 µM
CC(C)(C#Cc1ccc(NC(=O)CSc2nnnn2-c2ccc(C3CC3)cc2Cl)c(Cl)c1)OCCN1CCNCC1,PicoGreen / fluorescence,IC50,WT,HIV-1,Reverse transcriptase,-,-,<1 µM
CC(C)(CCNS(C)(=O)=O)CN(C[C@@H](O)[C@H](Cc1ccccc1)NC(=O)O[C@H]1CO[C@H]2OCC[C@H]21)S(=O)(=O)c1ccc(N)cc1,fluorescence,Ki,-,HIV-1,Protease,-,-,<0.001 µM
O=C(COc1ccc(NC(=O)CSc2nnnn2-c2ccc(C3CC3)cc2Cl)c(Cl)c1)NCc1cccnc1,PicoGreen / fluorescence,IC50,WT,HIV-1,Reverse transcriptase,-,-,<1 µM
CN=C(NC#N)NCCCC(C)(C)CN(C[C@@H](O)[C@H](Cc1ccccc1)NC(=O)O[C@H]1CO[C@H]2OCC[C@H]21)S(=O)(=O)c1ccc2c(c1)OCO2,fluorescence,Ki,-,HIV-1,Protease,-,-,<0.001 µM
CC(C)(C)NC(=O)[C@@H]1CCCN1C(=O)[C@@H](O)[C@H](Cc1ccccc1)NC(=O)[C@H](CC(=O)NN)NC(=O)OCc1cccc2ccccc12,-,IC50,-,HIV-1,Protease,-,-,<0.05 µM
CC(C)(C#Cc1ccc(NC(=O)CSc2nnnn2-c2ccc(C3CC3)cc2Cl)c(Cl)c1)C(=O)NCC1CCCO1,PicoGreen / fluorescence,IC50,WT,HIV-1,Reverse transcriptase,-,-,<1 µM
CC(C)(CCCCOC(=O)NC1CC1)CN(C[C@@H](O)[C@H](Cc1ccccc1)NC(=O)O[C@H]1CO[C@H]2OCC[C@H]21)S(=O)(=O)c1ccc2c(c1)OCO2,fluorescence,Ki,-,HIV-1,Protease,-,-,<0.001 µM

4 of the rows above, restated:

CCSC(=O)NCCCCC(C)(C)CN(C[C@@H](O)[C@H](Cc1ccccc1)NC(=O)O[C@H]1CO[C@H]2OCC[C@H]21)S(=O)(=O)c1cccc(N)c1 ; read by: fluorescence ; read-out: Ki ; species: HIV-1 ; target: Protease ; value: <0.001 µM
CC(C)(C#Cc1ccc(NC(=O)CSc2nnnn2-c2ccc(C3CC3)cc2Cl)c(Cl)c1)NCC(N)=O ; read by: PicoGreen / fluorescence ; read-out: IC50 ; species: HIV-1 ; target: Reverse transcriptase ; mutations: RT-K103 Y181C ; value: <1 µM
CC(C)(CCNS(=O)(=O)c1ccc(F)cc1)CN(C[C@@H](O)[C@H](Cc1ccccc1)NC(=O)O[C@H]1CO[C@H]2OCC[C@H]21)S(=O)(=O)c1ccc2c(c1)OCO2 ; read by: fluorescence ; read-out: Ki ; species: HIV-1 ; target: Protease ; value: <0.001 µM
CC(C)(CCNC(=O)N1CCOCC1)CN(C[C@@H](O)[C@H](Cc1ccccc1)NC(=O)O[C@H]1CO[C@H]2OCC[C@H]21)S(=O)(=O)c1ccc2c(c1)OCO2 ; read by: fluorescence ; read-out: Ki ; species: HIV-1 ; target: Protease ; value: <0.001 µM

ICn: concentration for n% inhibition. An empty or dashed field is not shown. Rows are shuffled and stem from different studies. Fold resistance: result on the changed form divided by that on wild type. Inhibition is in % at the dose shown (toxicity tests: loss of growth or viability).